Results reported in patent publication US20170035877A1.

How the values were obtained:
[1] = target: JRFL SOSIP (UniProt P20871); assay: ITC; conditions: Fab
[2] = target: JRFL gp120 (UniProt P20871)

Substance	Kd [1]	Kd [2]
VRC01 Fab	207 nM	
F105		7.42 nM
